Test results as given in publication PMC5775428, “Towards an experimental classification system for membrane active peptides” (Scientific Reports, 2018).
Read-outs that look alike come from different tables or passages of the source.

Assays:
[1] = Far-UV CD, percent helicity with 2:1 DMPC:DMPG LUVs; assay type: physicochemical; details: CD [θ]222 nm, 40 μM peptide + 2:1 DMPC:DMPG LUVs, 2016 dataset
[2] = DSC of 2:1 DMPC:DMPG LUVs with peptide; details: for Tm_broad_pcpg, transition temperature of broad component: 0.5 mM 2:1 DMPC:DMPG LUVs + 20 μM peptide (4 mol%), pH 7.4, 2016 dataset; for H_broad_pcpg, transition enthalpy of broad component / H_sharp_pcpg, transition enthalpy of sharp component / Hv_broad_pcpg, van´t Hoff transition enthalpy of broad component / Hv_sharp_pcpg, van´t Hoff transition enthalpy of sharp component / Tm_sharp_pcpg, transition temperature of sharp component: 2:1 DMPC:DMPG LUVs + 4 mol% peptide, 2016 dataset
[3] = Far-UV CD, percent helicity in buffer; assay type: physicochemical; details: CD [θ]222 nm, 40 μM peptide in buffer, method of Chen et al., 2016 dataset
[4] = PCA2 and hierarchical clustering of DSC data; set-up: key: Cluster 1 is composed by molecules with no significant interaction with the evaluated model membranes; Cluster 2 peptides present no detectable interaction with DMPC LUVs but disturb the main phase transition of 2:1 DMPC:DMPG LUVs; Cluster 3: Clusters 3 and 4 are populated by IAPs and AMPs that alter the main phase transition DMPC and 2:1 DMPC:DMPG LUVs and present significant and broad antimicrobial activity; Cluster 4: Clusters 3 and 4 are populated by IAPs and AMPs that alter the main phase transition DMPC and 2:1 DMPC:DMPG LUVs and present significant and broad antimicrobial activity; Cluster 5: The peptide cluster 5 is composed solely of AMPs; details: cluster membership from HCA of first five principal components of PCA2 (DSC data)
[5] = Far-UV CD, percent helicity with DMPC LUVs; assay type: physicochemical; details: CD [θ]222 nm, 40 μM peptide + DMPC LUVs, 2016 dataset
[6] = DSC of DMPC LUVs with peptide; details: 2016 dataset; for Tm_broad_pc, transition temperature of broad component: 0.5 mM DMPC LUVs + 20 μM peptide (4 mol%), pH 7.4, P′β→Lα transition, non-two state fit; for H_broad_pc, transition enthalpy of broad component / H_sharp_pc, transition enthalpy of sharp component / Hv_broad_pc, van´t Hoff transition enthalpy of broad component / Hv_sharp_pc, van´t Hoff transition enthalpy of sharp component / Tm_sharp_pc, transition temperature of sharp component: DMPC LUVs + 4 mol% peptide
[7] = set-up: method as in earlier work; details: CD [θ]222 nm, 2012 dataset; cited from earlier work
[8] = set-up: method as in earlier work; details: CD [θ]222 nm, DMPC LUVs, 2012 dataset; cited from earlier work
[9] = set-up: method as in earlier work; details: CD [θ]222 nm, 2:1 DMPC:DMPG LUVs, 2012 dataset; cited from earlier work

Sequence	% Helicity 0.01 peptide/(2:1 DMPC/DMPG) (mol/mol) [1] [%]	% Helicity (Buffer) [3] [%]	Cluster [4]	% Helicity 0.01 peptide/DMPC (mol/mol) [5] [%]	% Helicity (Buffer) [7] [%]	% Helicity 0.01 peptide/DMPC (mol/mol) [8] [%]	% Helicity 0.01 peptide/(2:1 DMPC/DMPG) (mol/mol) [9] [%]	further results
ANRLLEAYKMLLKFLGNLR [Gr02, putative IAP, KJB26672.1 (254–272)]	64.2	56.7	Cluster 4	50.5				Tm_broad_pcpg, transition temperature of broad component [2]: 24.93 °C; H_broad_pcpg, transition enthalpy of broad component [2]: 2987 kcal/mol; H_sharp_pcpg, transition enthalpy of sharp component [2]: 2606 kcal/mol; Hv_broad_pcpg, van´t Hoff transition enthalpy of broad component [2]: 105100 kcal/mol; Hv_sharp_pcpg, van´t Hoff transition enthalpy of sharp component [2]: 313200 kcal/mol; Tm_sharp_pcpg, transition temperature of sharp component [2]: 21.34 °C; Tm_broad_pc, transition temperature of broad component [6]: 25.09 °C; H_broad_pc, transition enthalpy of broad component [6]: 3574 kcal/mol; H_sharp_pc, transition enthalpy of sharp component [6]: 772 kcal/mol; Hv_broad_pc, van´t Hoff transition enthalpy of broad component [6]: 91960 kcal/mol; Hv_sharp_pc, van´t Hoff transition enthalpy of sharp component [6]: 310200 kcal/mol; Tm_sharp_pc, transition temperature of sharp component [6]: 22.06 °C
FINKAGKLQSQLRTTVVAAAAFLDAFQKVA [O43312(33-62)]			Cluster 4		11.9	42.9	56.4	
FKQFHFKDFNRAFGFMTRVALQAEKL [P61458(35-60)]			Cluster 2		7.6	6.1	23.5	
FLSLIPHAINAVSTLVHHF [PS-2, AMP from the skin secretion of Phyllomedusa azurea, reference compound]	59.7	10.5	Cluster 3	42.5	5.6	32.1	33.4	
GHRGALKDWVQAAGGAVAAFDFTTKG [Q8RW88(70-95)]			Cluster 1		17.0	12.4	14.9	
GIGDILKNLAKAAGKAALHAVGESL [HSP-4, Hylaseptin-4, reference compound]	96.6	12.4	Cluster 5	98.1	11.8	94.3	90.3	
GLKDMIKNLAKEAAVKLAGAVINKFSPQPQ [Nat-1, Nattererin-1, reference compound]	79.5	12.8	Cluster 4	48.0	14.3	64.1	75.5	
GLNTLKKVIQGLHEVIKLVNNHA [Pseudin B, AMP of the 2012 dataset, reference compound]			Cluster 4		14.8	72.2	68.7	
GLWQIFSSKEEGKDNSQQKSKGDQAKEL [gb|ACU24018.1|(73-101)]			Cluster 1		5.9	5.3	6.3	
GLWSTIKQKGKE [DS 01 (1-12), fragment 1–12 of DS 01, 2012 dataset, reference compound]			Cluster 1		6.9	4.2	12.1	
GVLDILKGAAKDLAGHVATKVINKI [Syphaxin, AMP of the 2012 dataset, reference compound]			Cluster 5		9.7	68.2	76.7	
IAAAQRITSGAADIAINWAGGLHHAKK [B0CZJ3(104-130)]			Cluster 1		20.0	16.0	19.3	
IKLRNVLKYLFRIDVIKEDIL [Tc03, putative IAP, Tc05_g014340 (12–32)]	50.7	40.4	Cluster 4	36.8				Tm_broad_pcpg, transition temperature of broad component [2]: 24.86 °C; H_broad_pcpg, transition enthalpy of broad component [2]: 2096 kcal/mol; H_sharp_pcpg, transition enthalpy of sharp component [2]: 820.2 kcal/mol; Hv_broad_pcpg, van´t Hoff transition enthalpy of broad component [2]: 115200 kcal/mol; Hv_sharp_pcpg, van´t Hoff transition enthalpy of sharp component [2]: 129200 kcal/mol; Tm_sharp_pcpg, transition temperature of sharp component [2]: 20.02 °C
KLKKLLAGQKDGLLGQIAAMSDLYTKK [P94692(929-955)]			Cluster 2		5.8	8.1	34.3	
LAKRRVLTLLRQLRRVSPSS [Q7YRI0(9-28)]			Cluster 2		13.4	12.0	43.8	
LLDKLKRTLLSIEAVLI [Tc11, putative IAP, EOY17584.1 (39–55)]	56.7	45.8	Cluster 2	57.0				Tm_broad_pcpg, transition temperature of broad component [2]: 24.89 °C; H_broad_pcpg, transition enthalpy of broad component [2]: 2151 kcal/mol; H_sharp_pcpg, transition enthalpy of sharp component [2]: 2118 kcal/mol; Hv_broad_pcpg, van´t Hoff transition enthalpy of broad component [2]: 118200 kcal/mol; Hv_sharp_pcpg, van´t Hoff transition enthalpy of sharp component [2]: 632200 kcal/mol; Tm_sharp_pcpg, transition temperature of sharp component [2]: 24.51 °C; Tm_broad_pc, transition temperature of broad component [6]: 23.59 °C; H_broad_pc, transition enthalpy of broad component [6]: 3818 kcal/mol; H_sharp_pc, transition enthalpy of sharp component [6]: 2201 kcal/mol; Hv_broad_pc, van´t Hoff transition enthalpy of broad component [6]: 109500 kcal/mol; Hv_sharp_pc, van´t Hoff transition enthalpy of sharp component [6]: 514800 kcal/mol; Tm_sharp_pc, transition temperature of sharp component [6]: 23.68 °C
LRPAILVRVKGKGL [Hyposin HA-6, peptide of the 2012 dataset, reference compound]			Cluster 1		16.1	11.9	15.5	
SLWKNLSRKISGAVKAQPDLHTLLPLPGS [Q9XEY7(120-148)]			Cluster 2		8.1	8.8	33.8	
